This test deals with HCV replicon Genotype 3a (GT3a NS3 protease). Kind of test: HCV Subgenomic Stable Replicon Cell Culture Assay, Genotype 3a. The conditions noted are these: concentrations ≥100-fold over its EC50 value; replicon containing GT3a NS3 protease. Type of test: cell-based, hepatitis C virus. (In general: Replicon systems follow genome replication, usually without infectious particles.)

Take `CC(C)(C)[C@@H]1NC(=O)O[C@@H]2CCC[C@H]2OC/C=C/C(F)(F)c2nc3ccccc3nc2O[C@@H]2C[C@@H](C(=O)N[C@]3(C(=O)NS(=O)(=O)C4(C)CC4)C[C@H]3C(F)F)N(C2)C1=O` [Compound 1]: the resistant colonies selected result was “very few colonies”.

For the origin of these results see patent US20250057837A1, “Methods for Treating HCV” (priority 2015, published 2025).
